The data set relates to alpha-enolase (ENO1, 48 kDa band in CrFK lysate and feline tissues) (Felis catus). As to the kind of experiment: binding assay. The following applies: northwestern (1D and 2D); 50 mM NaCl, 10 mM Tris pH 7, 1 mM EDTA, with yeast tRNA and salmon sperm DNA as blockers; described as high affinity; protein in an extract; label: 32P-CTP internal.

Results from cells or extracts need not show a direct contact.

With “CAUCGCGCUGUCUACUCUUGUACAGAAUGGUAAGCACGUGUAAUAGGAGGUACAAGCAACCCUAUUGCAUAUUAGGAAGUUUAGAUUUGAUUUGGCAAUGCUAGAUUUAGUAAUUUAGAGAA [FIPV 3'UTR riboprobe (positive strand, T7 transcript)]”, the binding result was “binds”.

The values are drawn from patent US20060051744.
